Experiments:
[1] = system: M. avium 2285R; test: Checkerboard antibacterial synergy testing of EBO pairwise combinations; assay type: cell-based; details: in combination with EBO, Middlebrook 7H9+5% OADC
Description: (§1) Frozen stocks of the drugs were prepared at 5 or 2 mg/ml and frozen in aliquots at −20° C. On the day of the experiment the stocks were thawed and diluted to the appropriate concentration. Middlebrook 7H9 broth and agar, CA-MH agar and Middlebrook OADC were all purchased from Becton-Dickinson and Company (Sparks, MD).
(§2) M. avium 2285R (Verma et al. Microbiol (2019) 10: 693) and M intracellulare DNA000111 were obtained from Diane Ordway (Colorado State University, Fort Collins, CO). M. chimaera 20-S-05 and the macrolide/bedaquiline-resistant M. intracellulare 20-S-13 isolate were obtained from Barbara Brown-Elliott (Mycobacteria/Nocardia Research Laboratory, University of Texas Health Science Center, Tyler Tx). The strains M abscessus ATCC 19977, M. avium ATCC 700898 and M. peregrinum ATCC 700686 were obtained from the American Type Culture Collection (ATCC, Manassas, VA). Stocks of isolates were prepared and frozen at −80° C. Fresh cultures of each isolate (1-2 weeks) were grown on either 7H10 agar plus 5% OADC or CAMH agar plus 5% OADC for use in each experiment.
(§3) The checkerboard methodology was used to test for synergy and antagonism using Middlebrook 7H9+5% OADC (Dubos et al. Am Rev Tuberc (1947) 56:334-45) as the microbiology growth media. The first antibiotic of the combination, EBO, was serially diluted along the x-axis, whereas the second antibiotic was diluted along the y-axis. Synergistic or antagonistic activity was determined using the sum of the fractional inhibitory concentration (ΣFIC) index. The FTC index is calculated as the sum of FTC A+FTC B, where FTC A is the MIC of drug A in the combination of drugs A and B divided by the MIC of drug A alone, plus the MIC of drug B in the combination of drugs A and B divided by the MIC of drug B alone. A combination of drugs is considered synergistic when the FIC is ≤0.5, additive when the FTC is >0.5 to 1, indifferent when the FIC is >1 to 2, and antagonistic when the FTC is >2 (EUCAST. Clin. Microbiol. Infect. (2000) 6: 503-508).

[2] = system: M. intracellulare 20-S-13; test: as above; assay type: cell-based; details: in combination with EBO, Middlebrook 7H9+5% OADC, M. intracellulare 20-S-13 (macrolide/bedaquiline-resistant)
Description: as §1, §2, §3

SMILES	Summary Activity of EBO Drug Combinations (ΣFIC index class) [1]	Summary Activity of EBO Drug Combinations (ΣFIC index class) [2]
NCC[C@H](O)C(=O)N[C@@H]1C[C@H](N)[C@@H](O[C@H]2O[C@H](CN)[C@@H](O)[C@H](O)[C@H]2O)[C@H](O)[C@H]1O[C@H]1O[C@H](CO)[C@@H](O)[C@H](N)[C@H]1O [AMK, Amikacin]	I (I = Indifferent)	I (I = Indifferent)
CC[C@H]1OC(=O)[C@H](C)[C@@H](O[C@H]2C[C@@](C)(OC)[C@@H](O)[C@H](C)O2)[C@H](C)[C@@H](O[C@@H]2O[C@H](C)C[C@H](N(C)C)[C@H]2O)[C@](C)(OC)C[C@@H](C)C(=O)[C@H](C)[C@@H](O)[C@]1(C)O [CLR, Clarithromycin]	A (A = Additive)	–

From US20260248831A1, “NON-TUBERCULOSIS MYCOBACTERIA INFECTION TREATMENT” (AN2 Therapeutics, Inc., priority 2021, published 2026)
